Experimental data reported in article PMC6753678, “Fueling Open Innovation for Malaria Transmission-Blocking Drugs: Hundreds of Molecules Targeting Early Parasite Mosquito Stages” (Frontiers in Microbiology, 2019).

How the values were obtained:
[1] = system: P. falciparum late stage (stages IV-V) gametocytes; assay: P. falciparum late stage gametocyte ATP depletion assay (Pf GC-ATP); conditions: unified cytotox over Pf GC-ATP IC50; red: <10-fold selectivity; green: >10-fold
[2] = system: P. falciparum female gametocytes; assay: P. falciparum female gametogenesis assay (Pf FGAA); conditions: unified cytotox over Pf FGAA IC50; red: <10-fold selectivity; green: >10-fold

SMILES | Assay tox ratio Pf GC-ATP [1] | Assay tox ratio Pf FGAA [2]
C[C@H](Cc1ccc(C[C@@H](C)NC[C@H](O)c2cccc(Cl)c2)cc1)NC[C@H](O)COc1ccccc1.Cl [TCMDC-131549] | 5.35 | 3.55
C[C@H](Cc1ccc(CCc2ccc(C[C@@H](C)NC[C@H](O)c3cccc(Cl)c3)cc2)cc1)NC[C@H](O)c1cccc(Cl)c1.Cl [TCMDC-131551] | 13.81 | 1.80
C[C@H](Cc1ccc(Oc2ccc(C[C@@H](C)NC[C@H](O)c3cccc(Cl)c3)cc2)cc1)NC[C@H](O)c1cccc(Cl)c1.Cl [TCMDC-131560] | 7.32 | 2.73
C[C@H](Cc1ccc(OCCCCCOc2ccc(C[C@@H](C)NC[C@H](O)c3cccc(Cl)c3)cc2)cc1)NC[C@H](O)c1cccc(Cl)c1.Cl [TCMDC-131563] | 3.55 | 2.03
N=C(/N=C(/NCCCCCCN/C(=N\C(=N)Nc1ccc(Cl)cc1)N1CCCCC1)N1CCCCC1)Nc1ccc(Cl)cc1 [TCMDC-131811] | 89.51 | 4.26
N=C(/N=C(/NCCCCCCN/C(=N/C(=N)NCc1ccc(Cl)c(Cl)c1)N1CCCCC1)N1CCCCC1)NCc1ccc(Cl)c(Cl)c1 [TCMDC-131816] | 118.29 | 16.52
CCN(CC)/C(=N/C(=N)NCc1ccc(Cl)cc1Cl)NCCCCCCN/C(=N\C(=N)NCc1ccc(Cl)cc1Cl)N(CC)CC [TCMDC-131819] | 122.44 | 7.73
CCCCN(CCCC)/C(=N/C(=N)NCc1ccc(Cl)c(Cl)c1)NCCCCCCN/C(=N\C(=N)NCc1ccc(Cl)c(Cl)c1)N(CCCC)CCCC [TCMDC-131821] | 21.43 | 5.24
COc1cc2nc(NCCCN3CCCCC3)nc(NCc3ccccc3)c2cc1OC [TCMDC-132012] | 26.59 | 8.79
CCc1c(CCNCCCCCCNC(C)Cc2ccc3c(c2CC)OCO3)ccc(OC)c1OC.Cl (stereo not shown) [TCMDC-132052] | 8.55 | 5.78
CCc1c(CCNCCCCCCNC(C)(C)Cc2ccc3c(c2CC)OCO3)ccc(OC)c1OC.Cl [TCMDC-132055] | 16.26 | 3.54
CCc1c(CCNCCCCCCNCCc2ccc([N+](=O)[O-])cc2)ccc(OC)c1OC.Cl [TCMDC-132066] | 10.17 | 3.73
Nc1c(Cl)cc(C(O)CNCCCCCOCCCc2ccc(O)c3ncccc23)cc1Cl.O=C(O)/C=C/C(=O)O (stereo not shown) [TCMDC-132088] | 13.49 | 2.92
O=C(O)C(F)(F)F.O=S(=O)(NCCN1CCCC1)c1cccc(-c2ccc(CNC3Cc4ccccc4C3)cc2)c1 [TCMDC-132241] | 3.36 | 2.33
COc1ccc(CNC2Cc3ccccc3C2)cc1-c1ccc(S(=O)(=O)NCCN2CCCC2)cc1.O=C(O)C(F)(F)F [TCMDC-132248] | 5.15 | 3.55
COc1ccc(CNC2Cc3ccccc3C2)cc1-c1ccc(OC)c(S(=O)(=O)NCCN2CCCC2)c1.O=C(O)C(F)(F)F [TCMDC-132251] | 10.43 | 4.40
Cc1cccc2nc(-c3ccc(-c4ccc(CNCc5ccc(CN)cc5)cc4)s3)[nH]c12.O=C(O)C(F)(F)F [TCMDC-132809] | 22.68 | 41.64
NCc1ccc(CNCc2cccc(-c3ccc(-c4nc5cc(C(F)(F)F)ccc5[nH]4)cc3)c2)cc1.O=C(O)C(F)(F)F [TCMDC-132811] | 22.78 | 23.52
FC(F)(F)c1ccc2[nH]c(-c3ccc(-c4ccc(CNCCN5CCNCC5)cc4)s3)nc2c1.O=C(O)C(F)(F)F [TCMDC-132862] | 7.70 | 3.30
FC(F)(F)c1ccc2[nH]c(-c3ccc(-c4cccc(CNCCN5CCNCC5)c4)cc3)nc2c1.O=C(O)C(F)(F)F [TCMDC-132864] | 13.80 | 8.69
FC(F)(F)c1ccc2[nH]c(-c3cccc(-c4ccc(CNCCN5CCNCC5)cc4)c3)nc2c1.O=C(O)C(F)(F)F [TCMDC-132872] | 12.46 | 5.99
COc1cc(-c2cc(-c3ccc(S(C)(=O)=O)cc3)cnc2N)ccc1O [TCMDC-133343] | 39.91 | 126.34
Fc1ccc2[nH]c(-c3ccc(-c4ccc(CN5CCC(CCN6CCCCC6)CC5)cc4)cc3)nc2c1.O=C(O)C(F)(F)F [TCMDC-133924] | 10.04 | 2.71
Fc1ccc2[nH]c(-c3cccc(-c4ccc(CN5CCC(CCN6CCCCC6)CC5)cc4)c3)nc2c1.O=C(O)C(F)(F)F [TCMDC-133940] | 11.52 | 2.65
FC(F)(F)c1ccc2[nH]c(-c3ccc(-c4cccc(CN5CCC(CCN6CCCCC6)CC5)c4)cc3)nc2c1.O=C(O)C(F)(F)F [TCMDC-133941] | 7.70 | 3.12

SMILES | Assay tox ratio Pf GC-ATP [1] | Assay tox ratio Pf FGAA [2]
Cc1n[nH]c2ccc(-c3ccc4nccc(N5CCC(N)CC5)c4c3)cc12.Cl [TCMDC-134315] | 24.18 | 3.78
CC(C)c1ccc(CN2CCC(CNC(=O)c3cc(-c4cccc(F)c4)cs3)C2)cc1.O=C(O)C(F)(F)F (stereo not shown) [TCMDC-134437] | 12.68 | 4.22
CC(C)(C)c1ccc(CN2CCC(CNC(=O)c3cc(-c4ccccc4C(F)(F)F)cs3)C2)cc1.O=C(O)C(F)(F)F (stereo not shown) [TCMDC-134441] | 26.52 | 11.73
CC(C)(C)c1ccc(CN2CCC(CNC(=O)c3cc(-c4cccc(C(F)(F)F)c4)cs3)C2)cc1.O=C(O)C(F)(F)F (stereo not shown) [TCMDC-134442] | 13.44 | 5.96
CC(C)(C)c1ccc(CN2CCC(CNC(=O)c3cc(-c4ccccc4F)cs3)C2)cc1.O=C(O)C(F)(F)F (stereo not shown) [TCMDC-134443] | 24.56 | 10.07
CC(C)(C)c1ccc(CN2CCC(CNC(=O)c3cc(-c4ccccc4Cl)cs3)C2)cc1.O=C(O)C(F)(F)F (stereo not shown) [TCMDC-134445] | 10.48 | 7.13
CC(C)(C)c1ccc(CN2CCC(CNC(=O)c3cc(-c4cccc(Cl)c4)cs3)C2)cc1.O=C(O)C(F)(F)F (stereo not shown) [TCMDC-134446] | 15.47 | 9.47
COc1cccc(-c2csc(C(=O)NCC3CCN(Cc4ccc(C(C)(C)C)cc4)C3)c2)c1.O=C(O)C(F)(F)F (stereo not shown) [TCMDC-134447] | 33.21 | 11.68
COc1cccc(OC)c1CN1CCC(N(C)CCCCCCCCN2CCC(OC(=O)Nc3ccccc3-c3ccccc3)CC2)CC1 [TCMDC-134684] | 2.57 | 1.18
COc1cccc(OC)c1CN1CCC(N(C)CCCCCCCCCN2CCC(OC(=O)Nc3ccccc3-c3ccccc3)CC2)CC1 [TCMDC-134690] | 7.47 | 1.46
Fc1ccc(OC2CN(c3nccc(NCc4ccccc4Cl)n3)C2)cc1 [TCMDC-135110] | 33.20 | 15.99
CCn1c(Sc2ccc([N+](=O)[O-])c(C#N)c2)nnc1-c1cccc(Cl)c1 [TCMDC-135234] | 6.18 | 13.98
Cc1occc1C(=O)Nc1nc(-c2ccccn2)nc2ccsc12 [TCMDC-135244] | 2.87 | 14.00
CCn1c(-c2nonc2N)nc2c(-c3cc4ccccc4s3)ncc(C(=O)N3CCC(N)C3)c21.O=C(O)C(F)(F)F (stereo not shown) [TCMDC-135281] | 6.43 | 5.02
CNCCNc1nccc(N2CCc3ncnc(Nc4ccc(OCc5cccc(F)c5)c(Cl)c4)c3C2)n1 [TCMDC-135478] | 9.61 | 3.82
COc1ccc(-c2cnc3[nH]cc(-c4ccncc4)c3c2)cc1OC [TCMDC-135853] | 8.30 | 3.29
CCn1c(-c2nonc2N)nc2c(-c3cccc(NC(=O)Nc4cccc(Cl)c4)c3)ncc(OCCCN)c21.O=C(O)C(F)(F)F [TCMDC-136193] | 21.91 | 40.34
Cl.c1ccc2c(C3CCN(CCCCOc4ccc5c(c4)CCN(CC4CC4)CC5)CC3)c[nH]c2c1 [TCMDC-136244] | 8.42 | 5.20
COc1ccc(Nc2nccc(-c3ccc4ccnc(NCCCCN)c4c3)n2)cc1 [TCMDC-136642] | 43.74 | 9.46
Cc1cc(OCCN2CCCCC2)ccc1NC(=O)c1cccc2c(=O)n(Cc3ccc(Cl)cc3)cnc12 [TCMDC-136727] | 4.68 | 3.17
CC(C)NCc1ccc(OCc2cccc(COc3ccc(CNC(C)C)cc3I)c2)c(I)c1.Cl [TCMDC-137259] | 15.58 | 2.48
CCCCOc1ccc(CNCCCCCCNCc2ccc(OCCCC)c3ccccc23)c2ccccc12.CS(=O)(=O)O [TCMDC-137281] | 0.95 | 6.62
CS(=O)(=O)O.FC(F)(F)COc1ccc(CCNCCCCNCCc2ccc(OCC(F)(F)F)c3ccccc23)c2ccccc12 [TCMDC-137282] | 87.37 | 11.50
CS(=O)(=O)O.FC(F)(F)COc1ccc2ccccc2c1CCNCCCCNCCc1c(OCC(F)(F)F)ccc2ccccc12 [TCMDC-137317] | 1.97 | 2.68
COc1cc2c(cc1CCNCCCCNCCc1cc3c(cc1OC)CCCC3)CCCC2.CS(=O)(=O)O [TCMDC-137319] | 22.19 | 2.10
